Test in all cases: microbe, parasite or virus in culture
The test system of test [1] is SARS-CoV-2. To be noted: Severe acute respiratory syndrome coronavirus 2, 2019-nCoV, Vero C1008.
Test [2] deals with SARS-CoV-2. To be noted: Severe acute respiratory syndrome coronavirus 2, Omicron BA.1, Vero C1008.
For test [3], the system named is SARS-CoV-2. To be noted: Severe acute respiratory syndrome coronavirus 2, BetaCoV/Shenzhen/SZTH-003/2020, Vero C1008.

This note sets out measurements from ChEMBL document CHEMBL5500399, “Design, Synthesis, and Biological Evaluation of 1,2,4-Oxadiazole Derivatives Containing an Aryl Carboxylic Acid Moiety as Potent Sarbecovirus Papain-like Protease Inhibitors” (J Med Chem, 2024).

By EC50 is commonly meant the midpoint of the concentration-response curve. In the case of `Cc1ccc(N)cc1C(=O)N[C@H](C)c1cccc2ccccc12`, the EC50 came to 44.1 µM in the test on SARS-CoV-2 [1], 80.8 µM in the test on SARS-CoV-2 [2] and 21 µM in the test on SARS-CoV-2 [3].
